PubChem BioAssay AID504761 | Drosophila RNAi Screening Center – 2011
The screen tested about 22,000 reagents; below is an unselected part of those with a known target gene and a result. Of all reagents, 116 (0.52%) got an active call. 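Calls depend on retest data that are not deposited; infection was ranked per plate without normalising between plates; the unit of the infection score is not given.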 Raw values vary from plate to plate and are shown uncorrected. Names joined by + are all predicted targets of the reagent. Not stated in the record: the amount of reagent, the time to read-out.

Assay: 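Insect host genes that dengue virus relies on to spread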 (primary screen)
Cells: D.Mel-2 cells from Drosophila
Reagents: long dsRNA against Drosophila genes
Challenge: infection with dengue virus type 2; dose and infection time not stated
Detection: 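Per well on two replicate plates, imaging gave the percent of cells positive for viral envelope protein, ranked by infection, and a nuclear count of cells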
Direction: infection score: higher = more virus-infected cells; cell count: higher = more cells in the well
Rule for the call: 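Low infection ranks in the two replicates (chance level up to 0.065) followed by a retest with a 1.5-fold or larger significant decrease, p below 0.05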
Meaning of the calls: active = confirmed: knock-down lowers infection; inactive = not picked or not confirmed

no.	target gene	PubChem SID	infection score, replicate 1	infection score, replicate 2	cell count, replicate 1	cell count, replicate 2	call
1	CG5339 (GeneID 37794)	SID104184288	34.4		5236	555	inactive
2	Ufsp1 (GeneID 246489)	SID104184750	1.57	0.45	6428	5971	inactive
3	Ufsp1 (GeneID 246489)	SID104205896	17.3	15.8	5844	6846	inactive
4	Wdfy2 (GeneID 34425)	SID104182614	20	10.6	6402	6902	inactive
5	Wdfy2 (GeneID 34425)	SID104208299	3.1	1.22	6705	6324	inactive
6	FeCH (GeneID 43757)	SID104196740	7.02	1.89	5851	6398	inactive
7	FeCH (GeneID 43757)	SID104206106	7.88	7.56	6422	7025	inactive
8	CG13771 (GeneID 33933)	SID104182069	1.5	0.78	5800	6893	inactive
9	CG17994 (GeneID 35550)	SID104184669	5.3	18.5	6814	5268	inactive
10	f-cup (GeneID 41677)	SID104193931	7.91	8.88	6399	6224	inactive
11	f-cup (GeneID 41677)	SID104207477	1.29		700	410	inactive
12	CG33958 (GeneID 37088)	SID104186264	9.61	18.3	3204	6238	inactive
13	CG33958 (GeneID 37088)	SID104186736	6.25	7.41	6446	6855	inactive
14	CG33958 (GeneID 37088)	SID104208179	9.13	22.4	6112	6054	inactive
15	Miro (GeneID 42845)	SID104195587	2.98	2.69	6169	6097	inactive
16	hep (GeneID 32256)	SID104199631	8.12	11.8	5150	4430	inactive
17	hep (GeneID 32256)	SID104200129	22.1	1.78	5076	393	inactive
18	hep (GeneID 32256)	SID104204875	2.08	2.1	6913	6569	inactive
19	azot (GeneID 35751)	SID104185843	4.77	7	6075	2285	inactive
20	azot (GeneID 35751)	SID104203989	4.84	5.14	5907	6203	inactive
21	rnh1 (GeneID 35746)	SID104187465	6.83		6017	418	inactive
22	mTerf5 (GeneID 42182)	SID104196001	19.7	26.4	5895	5621	inactive
23	TP53INP (GeneID 38543)	SID104187970	2.1	5.67	6148	6473	inactive
24	TP53INP (GeneID 38543)	SID104201986	12.2	5.49	6966	6176	inactive
25	TP53INP (GeneID 38543)	SID104204182	7.23	6	6032	6167	inactive
26	CG31102 (GeneID 326118)	SID104194052	10.3		6037	365	inactive
27	CG31102 (GeneID 326118)	SID104204894	7.65	5.11	5674	6812	inactive
28	Or49a (GeneID 36350)	SID104187285	18.3	3.93	2565	6315	inactive
29	RFeSP (GeneID 44390)	SID104180494	4	6.86	6328	6778	inactive
30	RFeSP (GeneID 44390)	SID104206151	10	9.02	5649	5265	inactive
31	CG33158 (GeneID 39834)	SID104189500	20.2	2.39	5746	6558	inactive
32	CG33158 (GeneID 39834)	SID104189501	1.29	1.3	5992	6396	inactive
33	CG33158 (GeneID 39834)	SID104190230	1.59	1.74	6172	6249	inactive
34	Ugt317A1 (GeneID 37590)	SID104184262	23.5	35.9	5644	5507	inactive
35	unc-45 (GeneID 44910)	SID104195241	5.06	14.6	6901	4759	inactive
36	eas (GeneID 32585)	SID104200121	5.63	3.69	7017	6674	inactive
37	eas (GeneID 32585)	SID104207979	24.3	9.32	4352	4777	inactive
38	CG14752 (GeneID 35840)	SID104186280	6.2	4.61	6357	6681	inactive
39	CG2772 (GeneID 33559)	SID104180322	8.39	9.11	6809	6567	inactive
40	CG2772 (GeneID 33559)	SID104205658	23.6	24.6	5941	5515	inactive
41	CG17118 (GeneID 34478)	SID104182371	1.86	1.04	6877	6726	inactive
42	mey (GeneID 43715)	SID104194260	7.91	5.17	417	6091	inactive
43	mey (GeneID 43715)	SID104205908	12.5	5.43	6811	6410	inactive
44	Rpt3R (GeneID 41190)	SID104196293	8.98	10.6	5792	5716	inactive
45	Rpt3R (GeneID 41190)	SID104203613	3	4.09	7265	5897	inactive
46	CG17127 (GeneID 34489)	SID104182373	2.37	2.58	6927	6441	inactive
47	CG17127 (GeneID 34489)	SID104207152	15.3	9.53	5890	4734	inactive
48	yellow-e2 (GeneID 41652)	SID104194961	3.06	17.5	6302	5022	inactive
49	CG12531 (GeneID 32986)	SID104199258	8.63	2.86	5839	6366	inactive
50	CG12531 (GeneID 32986)	SID104206223	2.71	6.36	6607	6398	inactive
51	CG3337 (GeneID 42519)	SID104195270	1.39	1.37	5918	6115	inactive
52	CG5882 (GeneID 43269)	SID104195699	10.7	1.68	6314	6419	inactive
53	CG32532 (GeneID 32943)	SID104199348	4.28	4.51	6381	5582	inactive
54	CG32532 (GeneID 32943)	SID104199349	1.95	4.27	6146	5529	inactive
55	CG32532 (GeneID 32943)	SID104201141	1.32	4.05	5984	6489	inactive
56	CG34423 + Mthfs	SID104183880	10.5	7.7	3007	2714	inactive
57	Imp (GeneID 32009)	SID104198653	1.22	6.93	5816	6480	inactive
58	Imp (GeneID 32009)	SID104200047	3.37	4.69	6528	6863	inactive

An excerpt from above, showing only “infection score, replicate 2”:
CG33158 (GeneID 39834) [SID104190230]	1.74
Ugt317A1 (GeneID 37590) [SID104184262]	35.9
unc-45 (GeneID 44910) [SID104195241]	14.6
